A mixed list of measured activities; the numbers were collected in NIAID ChemDB.

Shared fields: tests in culture

Rows are shuffled and stem from different studies.

structure | read-out | species | read by | strain or isolate | value
C[C@@H]1CN(c2c(F)c(N)c3c(=O)c(C(=O)O)cn(C4CC4)c3c2F)C[C@H](C)N1 | MIC | Mycobacterium avium complex | - | N-980 (HIV+) | 0.5 µg/mL
CC[C@H]1OC(=O)[C@H](C)[C@@H](O[C@H]2C[C@@](C)(OC)[C@@H](OC(C)=O)[C@H](C)O2)[C@H](C)[C@@H](O[C@@H]2O[C@H](C)C[C@H](N(C)C)[C@H]2O)C(C)(O)C[C@@H](C)/C(=N\OCC2CCCCC2)[C@H](C)[C@@H](O)[C@]1(C)O | MIC | Mycobacterium avium complex | - | 20039 (clarithromycin-susceptible) | 3.13 µg/mL
COc1ccc(-c2c(-c3ccc(OCc4ccccc4F)cc3O)n[nH]c2C(F)(F)F)cc1 | MIC | Mycobacterium marinum | visual reading | - | >50 µg/mL
CCCCCCCCCCCCCCCCO/N=C1\[C@H](C)CC(C)(O)[C@H](O[C@@H]2O[C@H](C)C[C@H](N(C)C)[C@H]2O)[C@@H](C)[C@H](OC2C[C@@](C)(OC)[C@@H](O)[C@H](C)O2)[C@@H](C)C(=O)O[C@H](CC)[C@@](C)(O)[C@H](O)[C@H]1C | MIC | Mycobacterium avium complex | - | 20039 (clarithromycin-susceptible) | >50 µg/mL
CO[C@H]1/C=C/O[C@@]2(C)Oc3c(C)c(O)c4c(=O)c(c5oc6cc(N7CCN(CC(C)C)CC7)cc(=O)c6nc5c4c3=C2O)NC(=O)/C(C)=C\C=C\[C@H](C)[C@H](O)[C@@H](C)[C@@H](O)[C@@H](C)[C@H](OC(C)=O)[C@@H]1C | MIC | Mycobacterium avium complex | - | N-238 (HIV-) | 0.0313 µg/mL
CCOc1ccc(-c2n[nH]c(C(F)(F)F)c2-c2ccccc2)c(O)c1C | MIC | Mycobacterium marinum | visual reading | - | >50 µg/mL
CO[C@H]1/C=C/O[C@@]2(C)Oc3c(C)c(O)c4c(O)c(c(/C=N/N5CCN(C6CCCC6)CC5)c(O)c4c3C2=O)NC(=O)/C(C)=C\C=C\[C@H](C)[C@H](O)[C@@H](C)[C@@H](O)[C@@H](C)[C@H](OC(C)=O)[C@@H]1C | MIC | Mycobacterium avium intracellulare | - | 420 | 1 µg/mL
COc1ccccc1-c1c(-c2ccc(OCc3ccccc3)cc2O)n[nH]c1C(F)(F)F | MIC | Mycobacterium marinum | visual reading | - | >50 µg/mL
CC[C@H]1OC(=O)[C@H](C)[C@@H](O[C@H]2C[C@@](C)(OC)[C@@H](OC(C)=O)[C@H](C)O2)[C@H](C)[C@@H](O[C@@H]2O[C@H](C)C[C@H](N(C)C)[C@H]2OC(=O)NN(C)Cc2ccccc2)C(C)(O)C[C@@H](C)/C(=N\OCCCC2CCCCC2)[C@H](C)[C@@H](O)[C@]1(C)O | MIC | Mycobacterium avium intracellulare | - | 20066 (clarithromycin-susceptible) | 1.56 µg/mL
CCc1nc(N)nc(N)c1-c1ccc(Cl)cc1 | MIC | Mycobacterium avium complex | - | ATCC49601 | 32 µg/mL
NNC(=O)c1ccncc1 | MIC | Mycobacterium avium intracellulare | - | N-475 (HIV-) | 2 µg/mL
CO[C@H]1/C=C/O[C@@]2(C)Oc3c(C)c(O)c4c(=O)c(c5oc6cc(N7CCN(CC(C)C)CC7)cc(=O)c6nc5c4c3=C2O)NC(=O)/C(C)=C\C=C\[C@H](C)[C@H](O)[C@@H](C)[C@@H](O)[C@@H](C)[C@H](OC(C)=O)[C@@H]1C | MBC | Mycobacterium ulcerans | - | Isolate 5143 | 0.025 µg/mL
CC[C@H]1OC(=O)[C@H](C)[C@@H](O[C@H]2C[C@@](C)(OC)[C@@H](OC(C)=O)[C@H](C)O2)[C@H](C)[C@@H](O[C@@H]2O[C@H](C)C[C@H](N(C)C)[C@H]2OC(=O)NNCCOc2ccccc2)C(C)(O)C[C@@H](C)/C(=N\OCCCC2CCCCC2)[C@H](C)[C@@H](O)[C@]1(C)O | MIC | Mycobacterium avium intracellulare | - | 20066 (clarithromycin-susceptible) | 0.78 µg/mL
Oc1cc(OCc2ccccc2)ccc1-c1n[nH]c(C(F)(F)F)c1-c1ccc(Br)cc1 | MIC | Mycobacterium marinum | visual reading | - | 12.5 µg/mL
CC[C@H]1OC(=O)[C@H](C)[C@@H](O[C@H]2C[C@@](C)(OC)[C@@H](OC(C)=O)[C@H](C)O2)[C@H](C)[C@@H](O[C@@H]2O[C@H](C)C[C@H](N(C)C)[C@H]2OC(=O)NNCc2ccccn2)C(C)(O)C[C@@H](C)/C(=N\OCCCC2CCCCC2)[C@H](C)[C@@H](O)[C@]1(C)O | MIC | Mycobacterium avium complex | - | 20039 (clarithromycin-susceptible) | 1.56 µg/mL
CO[C@H]1/C=C/O[C@@]2(C)Oc3c(C)c(O)c4c(O)c(c5c(c4c3C2=O)NC2(CCN(CC(C)C)CC2)N=5)=NC(=O)/C(C)=C\C=C\[C@H](C)[C@H](O)[C@@H](C)[C@@H](O)[C@@H](C)[C@H](OC(C)=O)[C@@H]1C | MIC | Mycobacterium avium complex | - | N-945 (HIV+) | 0.125 µg/mL
CC1(C)N=C(N)N=C(N)N1OCCCOc1cc(Cl)c(Cl)cc1Cl | MIC | Mycobacterium avium complex | - | ENMOO3 | 4 µg/mL
CC[C@H]1OC(=O)[C@H](C)[C@@H](O[C@H]2C[C@@](C)(OC)[C@@H](OC(C)=O)[C@H](C)O2)[C@H](C)[C@@H](O[C@@H]2O[C@H](C)C[C@H](N(C)C)[C@H]2O)C(C)(O)C[C@@H](C)/C(=N\OCCCCc2ccccc2)[C@H](C)[C@@H](O)[C@]1(C)O | MIC | Mycobacterium avium complex | - | 20092 (clarithromycin-resistant) | 1.56 µg/mL

For reference, 2 entries again:

structure	read-out	species	read by	strain or isolate	value
CCCCCCCCCCCCCCCCO/N=C1\[C@H](C)CC(C)(O)[C@H](O[C@@H]2O[C@H](C)C[C@H](N(C)C)[C@H]2O)[C@@H](C)[C@H](OC2C[C@@](C)(OC)[C@@H](O)[C@H](C)O2)[C@@H](C)C(=O)O[C@H](CC)[C@@](C)(O)[C@H](O)[C@H]1C	MIC	Mycobacterium avium complex	-	20039 (clarithromycin-susceptible)	>50 µg/mL
CO[C@H]1/C=C/O[C@@]2(C)Oc3c(C)c(O)c4c(=O)c(c5oc6cc(N7CCN(CC(C)C)CC7)cc(=O)c6nc5c4c3=C2O)NC(=O)/C(C)=C\C=C\[C@H](C)[C@H](O)[C@@H](C)[C@@H](O)[C@@H](C)[C@H](OC(C)=O)[C@@H]1C	MIC	Mycobacterium avium complex	-	N-238 (HIV-)	0.0313 µg/mL

Blank or dashed fields: not listed here.